# Measured values published in article PMC10460844, “Real‐Time Monitoring of Multitarget Antimicrobial Mechanisms of Peptoids Using Label‐Free Imaging with Optical Diffraction Tomography” (Advanced Science, 2023).
# Square brackets hold non-standard residues; d marks the D form. Peptide text beside a SMILES is read from it. Gly(N(CH2)2(3-indolyl)) = O=C(O)CNCCc1c[nH]c2ccccc12; Nspe = C[C@H](NCC(=O)O)c1ccccc1; Nlys = NCCCCNCC(=O)O
# Assay: SAXS of peptoid interaction with lipid vesicles
# Conditions: liposomes with 25% negatively charged lipids, 37 °C, 33.0 ± 1 Å without peptoid
row,Compound,membrane thickness after addition of peptoid
1,C[C@@H](c1ccccc1)N(CC(=O)N(CCCCN)CC(=O)N(CCc1c[nH]c2ccccc12)CC(=O)N(CCc1c[nH]c2ccccc12)CC(N)=O)C(=O)CN(CCCCN)C(=O)CN(CCCCN)C(=O)CN(C(=O)CN(C(=O)CN(CCCCN)C(=O)CN(C(=O)CN(C(=O)CNCCCCN)[C@@H](C)c1ccccc1)[C@@H](C)c1ccccc1)[C@@H](C)c1ccccc1)[C@@H](C)c1ccccc1 [peptoid 29] (H-[Nlys][Nspe][Nspe][Nlys][Nspe][Nspe][Nlys][Nlys][Nspe][Nlys][Gly(N(CH2)2(3-indolyl))][Gly(N(CH2)2(3-indolyl))]-NH2),29 ± 1 Å
2,C[C@@H](c1ccccc1)N(CC(=O)N(CCCCN)CC(=O)N(CC(=O)N(CC(=O)N(CCCCN)CC(=O)N(CC(=O)N(CC(=O)N(CCCCN)CC(=O)N(CCc1c[nH]c2ccccc12)CC(=O)N(CCc1c[nH]c2ccccc12)CC(N)=O)[C@@H](C)c1ccccc1)[C@@H](C)c1ccccc1)[C@@H](C)c1ccccc1)[C@@H](C)c1ccccc1)C(=O)CN(C(=O)CNCCCCN)[C@@H](C)c1ccccc1 [peptoid 11] (H-[Nlys][Nspe][Nspe][Nlys][Nspe][Nspe][Nlys][Nspe][Nspe][Nlys][Gly(N(CH2)2(3-indolyl))][Gly(N(CH2)2(3-indolyl))]-NH2),30 ± 1 Å
